According to patent US20170158753A1 (INTEGRATED BIOTHERAPEUTICS, published 2017):

B1: m8C4 (antibody, V domains shown)
VH: EVQLQESGPELKKPGETVKISCKASGYTFTTYGMSWVKQAPGKGLKWMGRINTYSGVPTYADEFKGRFAFSLENSASTAYLQINNLKNEDTATYFCARGDGGHWFANWGQGTLVTVSA
VL: DIQMTQSPSSLSASLGGKVTITCKASQDINKNIAWYQHKPGKGPRLLIWYKSALQPGIPSRFSGSGSGRDYSFSISNLEPEDIATYSCLQYDNLPPTFGGGTKLEIKR
B2: m16G8 (antibody, V domains shown)
VH: EVQLQESGPGLVKPGASVKISCKASGYSFTGYYMNWVKQSPEKSLEWIGEINPSTGGTTYNQKFKAKATLTVDKSSSTAYMQLKSLTSEDSAVYYCVRYSHYYGSGSWYFDVWGTGTTVTVSS
VL: DIQMTQSPASLSASVGETVTITCRASENIYSNLAWYQQKQGKSPQLLVNAATNLADGVPSRFSGSGSGTQFSLKINSLQPEDFGSYYCQHFYVTPYMFGSGTKLEIKR
B3: m17C6 (antibody, V domains shown)
VH: EVQLQESGPGLVQPSQSLSITCTVSGFSLTSYGVHWVRQSPGKGLEWLGVIWSGGSTDYNAAFISRLSISKDNSKSQVFFKMNSLQADDTAIYYCARNWFDYDNYYSMDYWGQGTSVTVSS
VL: DIQMTQTTSSLSASLGDRVTISCRASQDISNYLNWYQQKPDGTVKLLIYYTSRLHSGVPSRFSGSGSGTDFSLTISNQEPEDIATYYCQQYSNLPWTFGGGTKLEIKR

What was measured:
[1] = target: cleaved EBOV GP (GPcl) (Ebola virus (EBOV), UniProt Q05320 33-632); assay: ELISA on thermolysin cleaved EBOV GP (GPcl), OD650 against nM mAb
[2] = target: BDBV GPΔTM (Bundibugyo virus (BDBV)); assay: ELISA, GPΔTM coated

| Binder | binding result [1] | EC50 [2] |
| --- | --- | --- |
| B1 | no binding (tested: about 67 nM (last point; axis to 100 nM)) | – |
| B2 | – | 0.5 µg/mL |
| B3 | – | > 10 µg/mL |
